Results of unrelated studies side by side (data: NIAID ChemDB).

Common to all: tests in culture; agent: Hepatitis C virus; cell line: Huh7; read-out: EC50

An empty or dashed field is not shown. ECn is the concentration giving n% inhibition of infection, replication or growth. Rows are shuffled and stem from different studies. Two numbers with a dash give a range or band.

SMILES,strain or isolate,method,value
O=C(Nc1ccc(C2SC(=Nc3ccc(N4CCOCC4)cc3)N(Cc3ccccn3)C2=O)cc1)[C@H]1CCCN1C(=O)OCc1ccccc1,-,replicon,<0.1 µM
CCNc1cc2oc(-c3ccc(F)cc3)c(C(=O)NC)c2cc1O,-,replicon,>30 µM
CCOc1nc(N)nc2ccc(-c3ccc(NC(=O)[C@H](C)N)c(OC)c3)nc12,-,replicon,<0.3 µM
Cc1ncccc1C(=O)N/N=C/c1ccccc1OS(=O)(=O)c1ccc(C(F)(F)F)cc1,-,replicon,5–50 µM
COc1c(-c2ccc3cc(NS(C)(=O)=O)ccc3c2)cc(-n2ccc(=O)[nH]c2=O)cc1C(C)(C)C,genotype 1b Con1,luciferase,0.00059 µM
Cn1cnc(S(=O)(=O)NC(=O)c2ccc3c(C4CCCCC4)c4n(c3c2)CC=Cc2ccccc2-4)c1,-,replicon,>10 µM
CNC(=O)c1c(-c2ccc(F)cc2)oc2cc(N(C)S(C)(=O)=O)c(OCC(C)=O)cc12,-,replicon,<1 µM
COCCNc1nc(N)nc2ccc(-c3ccc(NC(=O)OC)cc3)nc12,-,replicon,0.3–1 µM
CCOC(=O)/N=C1\SC(c2ccc(NC(=O)[C@@H](C)NC(=O)OCc3ccccc3)cc2)C(=O)N1Cc1cccnc1,-,replicon,<0.1 µM
COc1cccc(CC(=O)N/N=C/c2ccccc2OS(=O)(=O)c2ccc(-c3cc(C(F)(F)F)n(C)n3)s2)c1,-,replicon,<5 µM
O=C(O)c1ccc2c(C3CCCCC3)c3n(c2c1)CNc1ccccc1-3,-,replicon,0.01–1 µM
CNC(=O)c1c(-c2ccc(F)cc2)oc2cc(N3CCOCC3)c(OCc3ccccc3)cc12,-,replicon,<1 µM
O=C(Cc1c(F)cccc1C(F)(F)F)N/N=C/c1ccccc1OS(=O)(=O)c1ccc(C(F)(F)F)cc1,-,replicon,<5 µM
CNC(=O)c1c(-c2ccc(F)cc2)oc2cc(N(C)S(C)(=O)=O)c(OC(C)C)cc12,-,replicon,<1 µM
CS(=O)(=O)NC(=O)c1ccc2c(C3CCCCC3)c3n(c2c1)CCNc1ccccc1-3,-,replicon,0.01–1 µM
CNC(=O)c1c(-c2ccc(F)cc2)oc2cc(N3CCOCC3)c(OCc3cccc4c3C(=O)OC(C)(C)O4)cc12,-,replicon,<10 µM
N#Cc1cccc(N=C2SC(c3ccc(NC(=O)[C@H]4CCCN4C(=O)OCc4ccccc4)cc3)C(=O)N2Cc2ccco2)c1,-,replicon,<0.1 µM
CNC(=O)c1c(-c2ccc(F)cc2)oc2cc(-c3noc(C(F)(F)F)n3)c(OC(C)C)cc12,-,replicon,<30 µM
O=C(NS(=O)(=O)c1ccccc1)c1ccc2c(C3CCCCC3)c3n(c2c1)CC=Cc1ncccc1-3,-,replicon,>10 µM
CNC(=O)c1c(-c2cccc(C(F)(F)F)c2)oc2ccc(OC)cc12,-,replicon,<30 µM
O=C(N/N=C/c1ccccc1OS(=O)(=O)c1ccc(C(F)(F)F)cc1)C1CCN(Cc2ccccc2)C1=O,-,replicon,>50 µM
CN(C)CCNC(=O)C1Cc2ccccc2-c2c(C3CCCCC3)c3ccc(C(=O)NC4(CNc5ccc(/C=C/C(=O)O)cc5)CCCC4)cc3n2C1,-,replicon,0.01–1 µM
CNC(=O)c1c(-c2ccc(F)cc2)oc2cc(Nc3ccncc3)c(OC(C)C)cc12,-,replicon,<30 µM
COc1ccc(CC(=O)N/N=C/c2ccccc2OS(=O)(=O)c2ccc(C(F)(F)F)cc2)cc1Br,-,replicon,<5 µM
CCOC(=O)/C=C/c1ccc(NC(=O)C2(NC(=O)c3ccc4c(C5CCCCC5)c5n(c4c3)CCCc3cc(O)ccc3-5)CCCC2)cc1,-,replicon,0.01–1 µM
CCOc1nc(N)nc2ccc(-c3ccc(NC(=O)CC)cc3)nc12,-,replicon,<0.3 µM
CC(C)N=C1SC(c2ccc(NC(=O)[C@@H](C)NC(=O)[C@H](C)c3ccccc3)cc2)C(=O)N1Cc1ccccn1,-,replicon,0.1–1 µM
CC(C)C(=O)Nc1ccc(-c2ccc3nc(N)nc(N4CCS(=O)(=O)CC4)c3n2)cc1,-,replicon,<0.3 µM
CCOC(=O)/C=C/c1ccc(NC(=O)C2(NC(=O)c3ccc4c(C5CCCCC5)c5n(c4c3)CCN(C(=O)OC(C)(C)C)c3ccccc3-5)CCCC2)cc1,-,replicon,0.01–1 µM
CNC(=O)c1c(-c2ccc(F)cc2)oc2cc(N(C)S(C)(=O)=O)c(OCc3nc(C(=O)O)cs3)cc12,-,replicon,>30 µM
CCOc1nc(N)nc2ccc(-c3ccc(Nc4nncs4)cc3)nc12,-,replicon,0.3–1 µM

The first 2 rows once more:

SMILES,strain or isolate,method,value
O=C(Nc1ccc(C2SC(=Nc3ccc(N4CCOCC4)cc3)N(Cc3ccccn3)C2=O)cc1)[C@H]1CCCN1C(=O)OCc1ccccc1,-,replicon,<0.1 µM
CCNc1cc2oc(-c3ccc(F)cc3)c(C(=O)NC)c2cc1O,-,replicon,>30 µM